Pooled drug test results. Numbers come from NIAID ChemDB, via PubChem.

Shared fields: growth or infection tests; species: Mycobacterium avium

ECn is the concentration giving n% inhibition of infection, replication or growth.

O=C(NNC(=O)c1ccncc1)Nc1ccc(Br)c(F)c1 ; read-out: MIC100 ; read by: broth dilution ; conditions: 21 d ; strain or isolate: MY330/88 ; value: >125 µM
CN[C@@H]1[C@H](O[C@H]2[C@H](O[C@H]3[C@H](O)[C@@H](O)[C@H](N=C(N)N)[C@@H](O)[C@@H]3N=C(N)N)O[C@@H](C)[C@]2(O)C=O)O[C@@H](CO)[C@H](O)[C@H]1O ; read-out: MIC50 ; strain or isolate: 100 strains ; value: 2.53 µg/mL
O=C(O)c1cn(C2CC2)c2cc(N3CCN(Cc4ccccc4)CC3)c(F)cc2c1=O ; read-out: MIC50 ; value: 4 µg/mL
CCc1nc2ccc(Cl)cn2c1C(=O)NCc1ccc(-c2ccc(OC(C)C)cc2)c(F)c1 ; read-out: inhibition ; read by: fluorescence ; tested at: 0.0094 µM ; value: 85%
O=c1oc2ccc(Br)cc2c(=O)n1-c1cccc([N+](=O)[O-])c1 ; read-out: MIC ; strain or isolate: CNCTC MY330/88 ; value: 31 µM
O=C(NNC(=O)c1ccncc1)Nc1ccc(C(F)(F)F)cc1 ; read-out: MIC100 ; read by: broth dilution ; conditions: 21 d ; strain or isolate: MY330/88 ; value: >125 µM
CCCCCCCCCCC#Cc1cn(COC(CO)CO)c(=O)[nH]c1=O ; read-out: EC50 ; strain or isolate: ATCC 25291 ; value: >50 µg/mL
Cc1ccn2c(C(=O)NCc3ccc(C4CCN(c5ccc(OC(F)(F)F)cc5F)CC4)c(F)c3)c(C)nc2c1 ; read-out: inhibition ; read by: fluorescence ; tested at: 0.028 µM ; value: 85%
CCCCCc1ccc(NC(=O)NNC(=O)c2ccncc2)cc1 ; read-out: MIC100 ; read by: broth dilution ; conditions: 14 d ; strain or isolate: MY330/88 ; value: 62.5 µM
CC[C@H]1OC(=O)[C@H](C)[C@@H](O[C@H]2C[C@@](C)(OC)[C@@H](O)[C@H](C)O2)[C@H](C)[C@@H](O[C@@H]2O[C@H](C)C[C@H](N(C)C)[C@H]2O)[C@](C)(O)C[C@@H](C)/C(=N\OCOCCOC)[C@H](C)[C@@H](O)[C@]1(C)O ; read-out: Median MIC ; value: 4 µg/mL
Cc1ccc2nc(C)c(C(=O)NCc3ccc(C(F)(F)F)cc3)n2c1 ; read-out: MIC ; read by: resazurin ; strain or isolate: A5 ; value: >1 µg/mL
Cc1cn2c(C(=O)NCc3ccc(N4CC=C(c5ccc(OC(F)(F)F)cc5)CC4)c(F)c3)c(C)nc2s1.Cl ; read-out: inhibition ; read by: fluorescence ; tested at: 0.34 µM ; value: 85%
Cc1ccn2c(C(=O)NCc3ccc(N4CCN(c5ccc(C(F)(F)F)cn5)CC4)c(F)c3)c(C)nc2c1 ; read-out: MIC ; mutations: Gentamicin-resistant ; read by: resazurin ; strain or isolate: 104 ; value: <0.0078 µg/mL
O=C(NNC(=O)c1ccncc1)Nc1ccc(Br)cc1Br ; read-out: MIC100 ; read by: broth dilution ; conditions: 21 d ; strain or isolate: MY330/88 ; value: >125 µM
O=c1oc2ccc([N+](=O)[O-])cc2c(=O)n1-c1ccc(Cl)c(Cl)c1 ; read-out: MIC ; strain or isolate: CNCTC MY330/88 ; value: 125 µM
CCc1cn2c(nc1=O)O[C@@H]1[C@H](F)[C@H]2O[C@@H]1CO ; read-out: MIC25 ; read by: resazurin ; strain or isolate: ATCC 25291 ; value: 50 µg/mL
O=C(NNC(=O)c1ccncc1)Nc1c(Cl)cc(Cl)cc1Cl ; read-out: MIC100 ; read by: broth dilution ; conditions: 21 d ; strain or isolate: MY330/88 ; value: >125 µM
CC(C)(C)OCOC(=O)c1cnccn1 ; read-out: MBC ; strain or isolate: ATCC 25291 ; value: 200 µg/mL
Cc1ccn2c(C(=O)NCc3ccc(N4CCC(NC(=O)OC(C)(C)C)CC4)c(F)c3)c(C)nc2c1 ; read-out: MIC ; read by: resazurin ; strain or isolate: 2151 ; value: 2–10 µM
C=Cc1cn(COC(CO)CO)c(=O)[nH]c1=O ; read-out: EC50 ; strain or isolate: ATCC 25291 ; value: >100 µg/mL
NC(=O)c1cnccn1 ; read-out: MBC ; strain or isolate: ATCC 25291 ; value: >200 µg/mL
COc1ccc(Nc2nnc(-c3ccncc3)o2)cc1 ; read-out: MIC100 ; read by: broth dilution ; conditions: 21 d ; strain or isolate: MY330/88 ; value: >125 µM
Cc1ccn2c(C(=O)NCc3ccc(N4CCSCC4)c(F)c3)c(C)nc2c1 ; read-out: MIC ; read by: resazurin ; strain or isolate: 2151 ; value: 2–10 µM
Cc1onc(-c2ccccc2Cl)c1C(=O)N[C@@H]1C(=O)N2[C@@H]1SC(C)(C)[C@@H]2C(=O)O ; read-out: Mean MIC ; strain or isolate: ATCC 25291 ; value: >256 µg/mL
Cc1ccc2oc(=O)n(-c3ccccc3)c(=O)c2c1 ; read-out: MIC ; strain or isolate: CNCTC MY330/88 ; value: 62.5 µM
NCC[C@H](O)C(=O)N[C@@H]1C[C@H](N)[C@@H](O[C@H]2O[C@H](CN)[C@@H](O)[C@H](O)[C@H]2O)[C@H](O)[C@H]1O[C@H]1O[C@H](CO)[C@@H](O)[C@H](N)[C@H]1O ; read-out: Median MIC ; value: 4 µg/mL
O=c1[nH]c(=O)n(COC(CO)CO)cc1I ; read-out: EC50 ; strain or isolate: ATCC 25291 ; value: >100 µg/mL
O=C(NNC(=O)c1ccncc1)Nc1ccc(F)c(Cl)c1 ; read-out: MIC100 ; read by: broth dilution ; conditions: 14 d ; strain or isolate: MY330/88 ; value: >62.5 µM
[N-]=[N+]=NC(CBr)c1cn(COCCO)c(=O)[nH]c1=O ; read-out: EC50 ; strain or isolate: ATCC 25291 ; value: <50 µg/mL
CCc1nc2ccc(Cl)cn2c1C(=O)NCc1ccc(N2CCN(c3ccc(OC(C)C)cc3)C(C)(C)C2)c(F)c1 ; read-out: inhibition ; read by: fluorescence ; tested at: 0.012 µM ; value: 85%
CCc1cc(C(N)=S)ccn1 ; read-out: MBC ; strain or isolate: 168-4 ; value: 80 µg/mL
CCCCOc1ccc(N2CCN(c3ccc(CNC(=O)c4c(CC)nc5cc(F)ccn45)cc3F)C[C@@H]2C)cc1.Cl ; read-out: inhibition ; read by: fluorescence ; tested at: 0.0074 µM ; value: 85%
CC[C@H]1OC(=O)[C@H](C)[C@@H](O[C@H]2C[C@@](C)(OC)[C@@H](O)[C@H](C)O2)[C@H](C)[C@@H](O[C@@H]2O[C@H](C)C[C@H](N(C)C)[C@H]2O)[C@](C)(OC)C[C@@H](C)C(=O)[C@H](C)[C@@H](O)[C@]1(C)O ; read-out: MBC ; strain or isolate: 1435 ; value: 32 µg/mL
NC[C@H]1O[C@H](O[C@H]2[C@H](O)[C@@H](O[C@H]3O[C@H](CO)[C@@H](O)[C@H](N)[C@H]3O)[C@H](N)C[C@@H]2N)[C@H](O)[C@@H](O)[C@@H]1O ; read-out: Mean MIC ; strain or isolate: ATCC 25291 ; value: 3.3 µg/mL
CCCCc1ccc(NC(=O)NNC(=O)c2ccncc2)cc1 ; read-out: MIC100 ; read by: broth dilution ; conditions: 21 d ; strain or isolate: MY330/88 ; value: 125 µM
O=c1oc2ccccc2c(=O)n1-c1ccc(Br)cc1 ; read-out: MIC ; strain or isolate: CNCTC MY330/88 ; value: 31 µM
CCCCCCCCC#Cc1cn(COC(CO)CO)c(=O)[nH]c1=O ; read-out: EC50 ; strain or isolate: ATCC 25291 ; value: >50 µg/mL
O=c1oc2ccc([N+](=O)[O-])cc2c(=O)n1-c1cccc([N+](=O)[O-])c1 ; read-out: MIC ; strain or isolate: CNCTC MY330/88 ; value: 250 µM
O=c1[nH]c(=S)c(CO)cn1C1OC(CO)C(O)C1O ; read-out: MIC73 ; read by: resazurin ; strain or isolate: ATCC 25291 ; value: 100 µg/mL
Cc1ccn2c(C(=O)NCc3ccc(N4CCN(c5ccc(C(F)(F)F)cn5)CC4)c(C(F)(F)F)c3)c(C)nc2c1 ; read-out: inhibition ; read by: fluorescence ; tested at: 0.35 µM ; value: 85%
CC1COc2c(N3CCN(C)CC3)c(F)cc3c(=O)c(C(=O)O)cn1c23 ; read-out: Mean MIC ; strain or isolate: ATCC 25291 ; value: >8 µg/mL
Cc1ccn2c(C(=O)NCc3ccc(N(C)C)cc3)c(C)nc2c1 ; read-out: MIC ; read by: resazurin ; strain or isolate: 2151 ; value: 2–10 µM
CN1CCN(c2cc3c(cc2F)c(=O)c(C(=O)O)cn3C2CC2)CC1 ; read-out: MIC50 ; value: 2 µg/mL

Repeating the first 6 entries:

{"SMILES": "O=C(NNC(=O)c1ccncc1)Nc1ccc(Br)c(F)c1", "read-out": "MIC100", "read by": "broth dilution", "conditions": "21 d", "strain or isolate": "MY330/88", "value": ">125 µM"}
{"SMILES": "CN[C@@H]1[C@H](O[C@H]2[C@H](O[C@H]3[C@H](O)[C@@H](O)[C@H](N=C(N)N)[C@@H](O)[C@@H]3N=C(N)N)O[C@@H](C)[C@]2(O)C=O)O[C@@H](CO)[C@H](O)[C@H]1O", "read-out": "MIC50", "strain or isolate": "100 strains", "value": "2.53 µg/mL"}
{"SMILES": "O=C(O)c1cn(C2CC2)c2cc(N3CCN(Cc4ccccc4)CC3)c(F)cc2c1=O", "read-out": "MIC50", "value": "4 µg/mL"}
{"SMILES": "CCc1nc2ccc(Cl)cn2c1C(=O)NCc1ccc(-c2ccc(OC(C)C)cc2)c(F)c1", "read-out": "inhibition", "read by": "fluorescence", "tested at": "0.0094 µM", "value": "85%"}
{"SMILES": "O=c1oc2ccc(Br)cc2c(=O)n1-c1cccc([N+](=O)[O-])c1", "read-out": "MIC", "strain or isolate": "CNCTC MY330/88", "value": "31 µM"}
{"SMILES": "O=C(NNC(=O)c1ccncc1)Nc1ccc(C(F)(F)F)cc1", "read-out": "MIC100", "read by": "broth dilution", "conditions": "21 d", "strain or isolate": "MY330/88", "value": ">125 µM"}

Conditions beyond the fields shown may differ between rows. MIC50, MIC90 and the like: level of inhibition, or share of isolates inhibited. Inhibition is in % at the dose shown (toxicity tests: loss of growth or viability). a–b is a range or a potency band.